Anti-infective test results gathered from many reports (values: NIAID ChemDB through PubChem).

All rows: whole-cell or culture tests; species: Hepatitis B virus; read-out: inhibition

An empty or dashed field is not shown. Two numbers with a dash give a range or band. Rows are shuffled and stem from different studies. Inhibition is in % at the dose shown (toxicity tests: loss of growth or viability).

CC1=C(O)C(=O)C=C2C1=CC=C1[C@@]2(C)CC[C@@]2(C)[C@@H]3C[C@](C)(C(=O)O)CC[C@]3(C)CC[C@]12C ; read by: ELISA ; tested at: 25 µM ; cells: HepG2 2.2.15 ; result: 25.9%
CC(C)OC(=O)CC1COP(=O)(CO[C@H](C)Cn2cnc3c(N)ncnc32)OC1 ; read by: PCR ; strain or isolate: Genotype D ; tested at: 1 µM ; cells: PHH ; result: ≤30%
CCCNC(=O)[C@]1(C)CC[C@]2(C)CC[C@]3(C)C4=CC=C5C(=CC(=O)C(O)=C5C)[C@]4(C)CC[C@@]3(C)[C@@H]2C1 ; read by: PCR ; tested at: 25 µM ; cells: HepG2 2.2.15 ; result: 17.2%
O=C(N[C@H](CO)Cc1ccccc1)/C(NC(=O)c1ccc(Cl)cc1Cl)=C(/Br)c1ccccc1 ; read by: PCR ; tested at: 1 µM ; cells: HepG2 2.2.15 ; result: 63.13%
CN(C)CCCOc1ccc2nc(SCc3ccccc3)n(Cc3ccco3)c(=O)c2c1 ; read by: PCR ; tested at: 0.8 µM ; cells: HepG2 2.2.15 ; result: 67.31%
C[C@H](Cn1cnc2c(N)ncnc21)OCP(=O)(O)O ; read by: PCR ; strain or isolate: Genotype D ; tested at: 1 µM ; cells: PHH ; result: ≤30%
Nc1ccn([C@@H]2CS[C@H](CO)O2)c(=O)n1 ; strain or isolate: WILD TYPE ; tested at: 0.01 µM ; cells: HepG2 ; result: 65%
CCOC(=O)CC1COP(=O)(CO[C@H](C)Cn2cnc3c(NC(=O)CC)ncnc32)OC1 ; read by: PCR ; strain or isolate: Genotype D ; tested at: 1 µM ; cells: HepaRG ; result: ≤30%
CCC(CCC(C)C1CCC2C3C[C@@H](O)[C@@]4(O)C[C@@H](O)CCC4(C)C3CCC12C)C(C)C ; read by: antigen ; tested at: 50 µg/mL ; cells: HepG2 2.2.15 ; result: 37.6%
CC1=C(O)C(=O)C=C2C1=CC=C1[C@@]2(C)CC[C@@]2(C)[C@@H]3C[C@](C)(C(=O)N4CCOCC4)CC[C@]3(C)CC[C@]12C ; read by: PCR ; tested at: 25 µM ; cells: HepG2 2.2.15 ; result: 26%
CCOC(=O)CC1COP(=O)(CO[C@H](C)Cn2cnc3c(NC(=O)CC(C)C)ncnc32)OC1 ; read by: PCR ; strain or isolate: Genotype D ; tested at: 1 µM ; cells: HepaRG ; result: 30–50%
COC(=O)[C@]1(C)CC[C@]2(C)CC[C@]3(C)C4=CC=C5C(=CC(=O)C(O)=C5C)[C@]4(C)CC[C@@]3(C)[C@@H]2C1 ; read by: PCR ; tested at: 25 µM ; cells: HepG2 2.2.15 ; result: 9.8%
Nc1nc2c(ncn2CCC(CO)CO)c(=O)[nH]1 ; strain or isolate: WILD TYPE ; tested at: 50 µM ; cells: HepG2 ; result: 84%
CC(C)OC(=O)CCC1COP(=O)(CO[C@H](C)Cn2cnc3c(N)ncnc32)OC1 ; read by: PCR ; strain or isolate: Genotype D ; tested at: 1 µM ; cells: PHH ; result: 50–80%
COC(=O)[C@]1(C)CC[C@]2(C)CC[C@]3(C)C4=CC=C5C(=CC(=O)C(OC)=C5C)[C@]4(C)CC[C@@]3(C)[C@@H]2C1 ; read by: PCR ; tested at: 25 µM ; cells: HepG2 2.2.15 ; result: 10.5%

2 of the rows above, restated:

smiles | read by | strain or isolate | tested at | cells | result
CC1=C(O)C(=O)C=C2C1=CC=C1[C@@]2(C)CC[C@@]2(C)[C@@H]3C[C@](C)(C(=O)N4CCOCC4)CC[C@]3(C)CC[C@]12C | PCR | - | 25 µM | HepG2 2.2.15 | 26%
CCC(CCC(C)C1CCC2C3C[C@@H](O)[C@@]4(O)C[C@@H](O)CCC4(C)C3CCC12C)C(C)C | antigen | - | 50 µg/mL | HepG2 2.2.15 | 37.6%